# Measurements published in the supplement of paper PMC12637763.
# The other results are listed elsewhere or left out. Env chains of viruses from a treatment-interruption trial, translated from the printed DNA. IC50 / IC80 of two broadly neutralizing antibodies; lower = more sensitive virus; >50 µg/ml means not reached and <0.001 µg/ml is below the lowest dose. No active / inactive call.
# B1: HIV-1 Env, rebound clone, placebo arm (protein)
# chain: MKVKGTRMNWQHLWRWGTLMLGLVIICNASNTNLWVTVYYGVPAWEDADTTLFCASDAKAYSTEKHNVWATHACVPTDPNPQEISLPNVTENFDMWKNNMVEQMHEDIISLWDESLKPCVKLTPLCVTLTCSDINITNSSNTTTTNGNNSMVDPEEIKNCTFNMTTEIIDKKKEEYALFYKLDIVQINNGNNSKDYRLINCNVSTIKQACPKVSFEPIPIHYCAPAGFAILKCKDKNFNGTGPCKNVSTVQCTHGIKPVVSTQLLLNGSLAEEDIVIRTKNITDNGNNIIVHLNESITINCTRPNNNTRKSIHLGQGQAFYATGAIIGDIRQAHCNVSGSQWINMIKRVAGKLKGVFSKNVTFNSSAGGDLEITTHSFNCGGEFFYCNTSNLFNSSILTSNNTNENITLPCKIRQIVRMWQTVGQAMYAPPIAGSIICTSNITGLILTRDGGSNETNGTDTFRPGGGNMKDNWRSELYKYKVVKIKPLGIAPTKARRRVVGREKRAIGVLGAALLGFLGTAGSTMGAASITLTVQVRQLLSGIVQQQSNLLRAIEAQQHLLQLTVWGIKQLQARVLAVERYLRDQQLLGIWGCSGKLICTTNVPWNASWSNKSYEEIWDNMTWIQWDREIDNYTQLIYSLIEESQNQQEKNEQDLLALDKWTSLWSWFDISNWLWYIRIFIIIVGGLIGLRIVFAVLSIVNRVRQGYSPLSLQTLLPHPPEADRPGEIEEGGGEQGRTRSIRLVNGFLALAWDDLRNLCLFLYHHLRDFILTAARTVETLGHRGWEILKYLGNLLCYWGQELKNSVINLLDTTAIAVGNWTDRFIELGQRVVRAVLHIPRRTRQGLERALL
# B2: HIV-1 Env, rebound clone, placebo arm (protein)
# chain: MKVMEIKKNWQNWWRGGILLLGILMIYSAAGKEDLWVTVYYGVPVWKETTTTLFCASDAKAYETEKHNVWATHACVPTDPNPQEIDLDNVTENFNMWKNNMVEQMHEDIISLWDQSLKPCVKLTPLCVTLSCTDVVINNTNTNTTGPRVENGELKNCSFNITTDIRDRIKKEYATFDKLDVVPINDNITNSTNNATNYILISCNTSTITQACPKVSFEPIPIHYCAPAGYAILKCKDKNFNGTGPCRNVSTVQCTHGIKPVVSTQLLLNGSLAEDEIVIRSENFTNNAKTIIVQLKDPVEINCTRPNNNTRKGIRVGPGRAIYATGQIIGDIRKAYCNISIPKWDDTLKQIVKKLQEQFKNKTIKINQSAGGDPEIVRHTFNCGGEFFYCDTSKLFNSSWDATGNRTENSTRGNDTFILPCRIKQIVNMWQQVGKAMYAPPVSGLIKCSSNITGLLLTRDGGNSNNTEEIFRPEGGDMRDNWRSELYKYKVVRLEPLGVAPTKAKRRVVQREKRAVGLGVMFLGFLGAAGSTMGAASITLTVQARQLLSGIVQQQNNLLRAIEAQQHMLQLTVWGIKQLQARVLAVERYLKDQQLMGIWGCSGKLICTTAVPWNASWSNRSYNYIWDNMTWMEWEREIDNYTGLIYNLIEESQNQQEKNEKDLLELDKWASLWNWFSITNWLWYIKIFIMIIGGLIGLRIVFTVLSIVNRVRQGYSPLPFQTRFPAPRGPDRPGGTEEEGGEKDRDTSGRLVDGFLALIWVDLRNLCLFSYRHLRDLLLIVARVVELLGRRGWEALKYWWNLLQYWSQELKNSAISLLNATAIAVAEGTDRIIKALQRAGRAILHIPTRIRQGLERALL
# B3: HIV-1 Env, rebound clone, placebo arm (protein)
# chain: MKVMEIKKNWQNWWRGGILLLGILMIYSAAGKEDLWVTVYYGVPVWKETTTTLFCASDAKAYETEKHNVWATHACVPTDPNPQEIDLDNVTENFNMWKNNMVEQMHEDIISLWDQSLKPCVKLTPLCVTLSCTDVVINNTNTNTTGPRMENGELKNCSFNITTDIRDRIKKEYATFDKLDVVPINDNITNSTNNATNYILISCNTSTITQACPKVSFEPIPIHYCAPAGYAILKCKDKNFNGTGPCRNVSTVQCTHGIKPVVSTQLLLNGSLAEDEIVIRSENFTNNAKTIIVQLKDPVEINCTRPNNNTRKGISVGPGRAIYATGQIIGDIRKAYCNISIPKWDDTLKQIVKKLQEQFKNKTIKINQSAGGDPEIVRHTFNCGGEFFYCDTSKLFNSSWDATGNRTENSTRGSDTFILPCRIKQIVNMWQQVGKAMYAPPVSGLIKCSSNITGLLLTRDGGNSNNTEEIFRPEGGDMRDNWRSELYKYKVVRLEPLGVAPTKAKRRVVQREKRAVGLGVMFLGFLGAAGSTMGAASITLTVQARQLLSGIVQQQNNLLRAIEAQQHMLQLTVWGIKQLQARVLAVERYLKDQQLMGIWGCSGKLICTTAVPWNASWSNRSYNYIWDNMTWMEWEREIDNYTGLIYNLIEESQNQQEKNEKDLLELDKWASLWNWFSITNWLWYIKIFIMIIGGLIGLRIVFTVLSIVNRVRQGYSPLPFQTRFPAPRGPDRPGGTEEEGGEKDRDTSGRLVDGFLALIWVDLRNLCLFSYRHLRDLLLIVARVVELLGRRGWEALKYWWNLLQYWSQELKNSAISLLNATAIAVAEGTDRIIKALQRAGRAILHIPTRIRQGLERALL
# What was measured:
# antibody 10-1074 [1] = test: neutralization IC50; higher = virus less sensitive to the antibody
# Procedure: (§1)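 Pseudovirus bearing the Env chain mixed with antibody, from 50 µg/ml in fivefold dilutions, on TZM-bl reporter cells, in duplicate.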
# antibody 3BNC117 [2] = test: as above
# Procedure: as §1
# antibody 10-1074 [3] = test: neutralization IC80; higher = virus less sensitive to the antibody
# Procedure: as §1
# antibody 3BNC117 [4] = test: as above
# Procedure: as §1
binder,measurement,setting,value
B1,neutralization IC50,antibody 10-1074 [1],0.012 µg/mL
same,neutralization IC50,antibody 3BNC117 [2],0.127 µg/mL
same,neutralization IC80,antibody 10-1074 [3],0.036 µg/mL
same,neutralization IC80,antibody 3BNC117 [4],0.414 µg/mL
B2,neutralization IC50,antibody 10-1074 [1],0.003 µg/mL
same,neutralization IC50,antibody 3BNC117 [2],0.005 µg/mL
same,neutralization IC80,antibody 10-1074 [3],0.019 µg/mL
same,neutralization IC80,antibody 3BNC117 [4],0.018 µg/mL
B3,neutralization IC50,antibody 10-1074 [1],0.008 µg/mL
same,neutralization IC50,antibody 3BNC117 [2],0.007 µg/mL
same,neutralization IC80,antibody 10-1074 [3],0.026 µg/mL
same,neutralization IC80,antibody 3BNC117 [4],0.035 µg/mL
